Pooled drug test results. Numbers come from NIAID ChemDB, via PubChem.

All rows: target-level tests

Two numbers with a dash give a range or band. Blank or dashed fields: not listed here. ICn: concentration for n% inhibition. Inhibition is in % at the dose shown (toxicity tests: loss of growth or viability). Neighbouring rows are from separate reports.

structure | protein | strain or isolate | read by | endpoint | tested at | agent | value
CC(NC(=O)c1ccc2c(c1)nc(-c1ccc3nc(-c4ccccc4)cnc3c1)n2C1CCCCC1)C(=O)O | NS5B polymerase |  |  | inhibition | 33 µM | Hepatitis C virus | 83.24%
O=C(NCCc1ccccc1)Nc1ccccc1-c1nc(C(=O)O)c(O)c(=O)[nH]1 | HCV polymerase |  |  | IC50 |  | Hepatitis C virus | <100 µM
O=C(O)/C=C/c1ccc(NC(=O)C2(NC(=O)c3ccc4c(c3)nc(-c3ccco3)n4C3CCCCC3)CCCC2)cc1 | NS5B polymerase |  |  | IC50 |  | Hepatitis C virus | <0.5 µM
CC[C@@H](C=O)NC(=O)[C@@H]1C[C@@H](OCc2ccccc2)CN1C(=O)[C@@H](NC(=O)C1(c2ccccc2)CC1)C(C)C | NS3 protease |  |  | Ki |  | Hepatitis C virus | >100 µM
COc1cc(C(=O)O)ccc1NC(=O)C1(NC(=O)c2ccc3c(c2)nc(-c2ccoc2)n3C2CCCCC2)CCCC1 | NS5B polymerase |  |  | IC50 |  | Hepatitis C virus | 0.5–5 µM
Cc1ccc(S(=O)(=O)Nc2cc(-c3ccc(C(=O)O)cc3)sc2C(=O)O)c(C)c1 | NS3 ATPase |  |  | IC50 |  | Hepatitis C virus | <5 µM
COc1nc(NCCc2c[nH]c3ccccc23)nc(Nc2ccc3cn[nH]c3c2)n1 | DNA polymerase |  |  | inhibition | 0.01 µg/mL | Hepatitis B virus | 20%
C=C[C@H]1C[C@@]1(NC(=O)[C@@H]1C[C@@H](Oc2cc(-c3ccccc3)nc3cc(OC)ccc23)CN1C(=O)[C@@H](NC(=O)OC(C)(C)C)C(C)(C)C)C(=O)NS(=O)(=O)C1(CC#CCC)CC1 | NS3/NS4A protease | BMS |  | IC50 |  | Hepatitis C virus | <0.05 µM
O=C(O)c1ccc2c(c1)nc(-c1ccc3nc(-c4ccc(F)cc4)c(-c4ccc(F)cc4)nc3c1)n2C1CCCCC1 | NS5B polymerase |  |  | inhibition | 100 µM | Hepatitis C virus | 99.86%
CC(C)N(C(=O)c1ccc(Cl)cc1Cl)c1cc(-c2cccc(Cl)c2)sc1C(=O)O | NS3 ATPase |  |  | IC50 |  | Hepatitis C virus | <5 µM
CC[C@@H](C=O)NC(=O)[C@@H]1C[C@@H](OC(=O)c2ccccc2)CN1C(=O)[C@@H](NC(=O)[C@@H](NC(=O)c1cnccn1)C(C)C)C(C)C | NS3 protease |  |  | Ki |  | Hepatitis C virus | 1–100 µM
C[C@@H](NC(=O)c1ccc2c(c1)nc(-c1ccoc1)n2C1CCCCC1)C(=O)Nc1ccc(-c2csc(N)n2)cc1 | NS5B polymerase |  |  | IC50 |  | Hepatitis C virus | 0.5–5 µM
O=C(Cc1csc2ccc(Cl)cc12)Nc1ccsc1-c1nc(C(=O)O)c(O)c(=O)[nH]1 | HCV polymerase |  |  | IC50 |  | Hepatitis C virus | <25 µM
CNC(=O)c1c(-c2ccc(F)cc2)oc2cc(N(C(C)C)S(C)(=O)=O)c(OC(C)C)cc12 | Nonstructural protein 5B |  |  | IC50 |  | Hepatitis C virus | ≤0.5 µM
CNC(=O)C1CCN(c2nc(Nc3ccc4[nH]ncc4c3)nc(OC)n2)CC1 | DNA polymerase |  |  | inhibition | 0.1 µg/mL | Hepatitis B virus | 18%
O=C(Nc1cccc(-c2nc(C(=O)O)c(O)c(=O)[nH]2)c1)NC(Cc1ccccc1)c1ccccc1 | HCV polymerase |  |  | IC50 |  | Hepatitis C virus | <100 µM
CCC(=O)N(Cc1cccc(Cl)c1)c1cc(-c2ccccc2)sc1C(=O)O | NS3 ATPase |  |  | IC50 |  | Hepatitis C virus | 5–20 µM
O=C(Cc1ccccc1Cl)Nc1cscc1-c1nc(C(=O)O)c(O)c(=O)[nH]1 | HCV polymerase |  |  | IC50 |  | Hepatitis C virus | <25 µM
Cc1ccc(C(=O)N(C)c2cc(-c3ccccc3)sc2C(=O)O)cc1 | NS3 ATPase |  |  | IC50 |  | Hepatitis C virus | <5 µM
N[C@H](COC(=O)Nc1ccsc1-c1nc(C(=O)O)c(O)c(=O)[nH]1)c1ccccc1 | HCV polymerase |  |  | IC50 |  | Hepatitis C virus | <25 µM
CC(C)(NC(=O)c1ccc2c(c1)nc(-c1ccoc1)n2C1CCCCC1)C(=O)Nc1ccc(-c2csc(C(=O)O)n2)cc1 | NS5B polymerase |  |  | IC50 |  | Hepatitis C virus | <0.5 µM
O=C(O)c1ccc2c(c1)nc(-c1ccc3nc(-c4cc(OCCCN5CCCC5)ccc4-c4ccc(Cl)cc4)ccc3c1)n2C1CCCCC1 | NS5B polymerase |  |  | inhibition | 33 µM | Hepatitis C virus | 97.83%
N#Cc1cccc(C(=O)Nc2cccc(-c3nc(C(=O)O)c(O)c(=O)[nH]3)c2)c1 | HCV polymerase |  |  | IC50 |  | Hepatitis C virus | <100 µM
C=CC1C[C@@]1(NC(=O)[C@@H]1C[C@@H](Oc2cc(-c3ccccc3)nc3cc(OC)ccc23)CN1C(=O)[C@@H](NC(=O)Oc1ccccc1OC)C(C)(C)C)C(=O)NS(=O)(=O)C1(Cc2ccccc2)CC1 | NS3/NS4A protease | BMS |  | IC50 |  | Hepatitis C virus | 0.05–0.5 µM
CNC(=O)c1c(-c2ccc(F)cc2)oc2ccc(OC)cc12 | Nonstructural protein 5B |  |  | IC50 |  | Hepatitis C virus | ≤0.5 µM
C=C[C@H]1C[C@@]1(NC(=O)[C@@H]1C[C@@H](Oc2cc(-c3ccccc3)nc3cc(OC)ccc23)CN1C(=O)[C@@H](NC(=O)OC(C)(C)C)C(C)(C)C)C(=O)NS(=O)(=O)C1(C=C(C)C)CC1 | NS3/NS4A protease | BMS |  | IC50 |  | Hepatitis C virus | <0.05 µM
COc1nc(Nc2ccc3[nH]ncc3c2)nc(NC2CC2)n1 | DNA polymerase |  |  | inhibition | 0.01 µg/mL | Hepatitis B virus | 12%
CCN1CCC(NC(=O)c2ccc3c(c2)nc(-c2ccoc2)n3C2CCCCC2)(C(=O)Nc2ccc(-c3nc(C(N)=O)cs3)cc2)CC1 | NS5B polymerase |  |  | IC50 |  | Hepatitis C virus | <0.5 µM
Cc1ccccc1CNC(=O)Nc1ccsc1-c1nc(C(=O)O)c(O)c(=O)[nH]1 | HCV polymerase |  |  | IC50 |  | Hepatitis C virus | <25 µM
COc1nc(Nc2ccc3cn[nH]c3c2)nc(-n2ccnc2)n1 | DNA polymerase |  |  | inhibition | 1 µg/mL | Hepatitis B virus | 78%
CC[C@H](C)C(NC(=O)c1ccc2c(c1)nc(-c1ccoc1)n2C1CCCCC1)C(=O)Nc1ccc(/C=C/C(=O)O)cc1 | NS5B polymerase |  |  | IC50 |  | Hepatitis C virus | 0.5–5 µM
CC(C)CC(NC(=O)c1ccc2c(c1)nc(-c1ccc3nc(-c4ccccc4)cnc3c1)n2C1CCCCC1)C(=O)O | NS5B polymerase |  |  | inhibition | 100 µM | Hepatitis C virus | 95.91%
CC(C)N(C(=O)c1ccc(Cl)cc1[N+](=O)[O-])c1cc(-c2ccccc2)sc1C(=O)O | NS3 ATPase |  |  | IC50 |  | Hepatitis C virus | <5 µM
CC(NC(=O)c1ccc2c(c1)nc(-c1ccoc1)n2C1CCCCC1)C(=O)Nc1cccc(-c2ccc(C(=O)O)o2)c1 | NS5B polymerase |  |  | IC50 |  | Hepatitis C virus | <0.5 µM
CNC(=O)c1c(-c2ccc(F)cc2)oc2cc(C)c(OC(C)C)c(S(N)(=O)=O)c12 | Nonstructural protein 5B |  |  | IC50 |  | Hepatitis C virus | ≤0.5 µM
COc1ccc(-c2ccccc2OC)c(-c2ccc3cc(-c4nc5cc(C(=O)O)ccc5n4C4CCCCC4)ccc3n2)c1 | NS5B polymerase |  |  | inhibition | 33 µM | Hepatitis C virus | 101%
CNC(=O)c1c(-c2ccc(F)cc2)oc2cc(-c3c(C)noc3COC)c(OC)cc12 | Nonstructural protein 5B |  |  | IC50 |  | Hepatitis C virus | ≤0.5 µM
COc1nc(NCCN2CCOCC2)nc(Nc2ccc3[nH]ncc3c2)n1 | DNA polymerase |  |  | IC50 |  | Hepatitis B virus | 0.1–1 µg/mL
C=C[C@H]1C[C@@]1(NC(=O)[C@@H]1C[C@@H](Oc2ccnc3cc(Cl)ccc23)CN1C(=O)[C@@H](NC(=O)OC1CCCC1)C(C)(C)C)C(=O)NS(=O)(=O)C1(CCCC)CC1 | NS3/NS4A protease | BMS |  | IC50 |  | Hepatitis C virus | <0.05 µM
CC[C@@H](C=O)NC(=O)[C@@H]1C[C@@H](OCc2ccccc2)CN1C(=O)[C@@H](NC(=O)[C@H](Cc1ccc2ccccc2c1)NC(=O)c1cnccn1)C(C)C | NS3 protease |  |  | Ki |  | Hepatitis C virus | 1–100 µM
O=C(NC1(C(=O)Nc2ccc3c(C(F)(F)F)cc(=O)oc3c2)CCCC1)c1ccc2c(c1)nc(-c1ccoc1)n2C1CCCCC1 | NS5B polymerase |  |  | IC50 |  | Hepatitis C virus | 5–25 µM
O=c1c(O)c(-c2ccc(O)c(O)c2)oc2cc(O)c(O)c(O)c12 | RdRp | genotype 1b | nucleotide incorporation | IC50 |  | Hepatitis C virus | 4.3 µM
COc1ccc(-c2ccc(C(N)=O)cc2)c(-c2ccc3cc(-c4nc5cc(C(=O)O)ccc5n4C4CCCCC4)ccc3n2)c1 | NS5B polymerase |  |  | inhibition | 100 µM | Hepatitis C virus | 101%
Cc1ccccc1S(=O)(=O)Nc1cc(-c2cccc(O)c2)sc1C(=O)O | NS3 ATPase |  |  | IC50 |  | Hepatitis C virus | <5 µM
Cc1cc(-c2ccc3cc(-c4nc5cc(C(=O)O)ccc5n4C4CCCCC4)ccc3n2)c(O)c([N+](=O)[O-])c1 | NS5B polymerase |  |  | inhibition | 100 µM | Hepatitis C virus | 103%
C=C[C@H]1C[C@@]1(NC(=O)[C@@H]1C[C@@H](Oc2cc(-c3ccccc3)nc3cc(OC)ccc23)CN1C(=O)[C@@H](NC(=O)OCC1CCOCC1)C(C)(C)C)C(=O)NS(=O)(=O)C1(Cc2ccccc2)CC1 | NS3/NS4A protease | BMS |  | IC50 |  | Hepatitis C virus | <0.05 µM
CC[C@@H](C=O)NC(=O)[C@@H]1C[C@@H](OC(=O)Nc2ccc(OC)cc2)CN1C(=O)[C@@H](NC(=O)[C@@H](NC(=O)c1cnccn1)C(C)C)C(C)C | NS3 protease |  |  | Ki |  | Hepatitis C virus | 1–100 µM
CCC[C@]1(CC(=O)O)OCCc2c1[nH]c1c(C)ccc(C#N)c21 | NS5B polymerase | FC 1-20 genotype 1B |  | IC50 |  | Hepatitis C virus | 0.5 µM
O=C(O)c1ccc2cc(NC(=O)c3ccc4c(c3)nc(-c3ccc5nc(-c6ccccc6)cnc5c3)n4C3CCCCC3)ccc2c1 | NS5B polymerase |  |  | inhibition | 100 µM | Hepatitis C virus | 98.99%
CC[C@@H](C=O)NC(=O)[C@@H]1C[C@@H](OCc2ccc(C#N)cc2)CN1C(=O)[C@@H](NC(=O)[C@@H](NC(=O)c1cnccn1)C(C)C)C(C)C | NS3 protease |  |  | Ki |  | Hepatitis C virus | 1–100 µM

7 of the rows above, restated:

{"structure": "O=C(O)c1ccc2c(c1)nc(-c1ccc3nc(-c4ccc(F)cc4)c(-c4ccc(F)cc4)nc3c1)n2C1CCCCC1", "protein": "NS5B polymerase", "endpoint": "inhibition", "tested at": "100 µM", "agent": "Hepatitis C virus", "value": "99.86%"}
{"structure": "CNC(=O)c1c(-c2ccc(F)cc2)oc2cc(C)c(OC(C)C)c(S(N)(=O)=O)c12", "protein": "Nonstructural protein 5B", "endpoint": "IC50", "agent": "Hepatitis C virus", "value": "≤0.5 µM"}
{"structure": "C=C[C@H]1C[C@@]1(NC(=O)[C@@H]1C[C@@H](Oc2cc(-c3ccccc3)nc3cc(OC)ccc23)CN1C(=O)[C@@H](NC(=O)OC(C)(C)C)C(C)(C)C)C(=O)NS(=O)(=O)C1(C=C(C)C)CC1", "protein": "NS3/NS4A protease", "strain or isolate": "BMS", "endpoint": "IC50", "agent": "Hepatitis C virus", "value": "<0.05 µM"}
{"structure": "O=C(Nc1cccc(-c2nc(C(=O)O)c(O)c(=O)[nH]2)c1)NC(Cc1ccccc1)c1ccccc1", "protein": "HCV polymerase", "endpoint": "IC50", "agent": "Hepatitis C virus", "value": "<100 µM"}
{"structure": "CNC(=O)c1c(-c2ccc(F)cc2)oc2cc(N(C(C)C)S(C)(=O)=O)c(OC(C)C)cc12", "protein": "Nonstructural protein 5B", "endpoint": "IC50", "agent": "Hepatitis C virus", "value": "≤0.5 µM"}
{"structure": "CCN1CCC(NC(=O)c2ccc3c(c2)nc(-c2ccoc2)n3C2CCCCC2)(C(=O)Nc2ccc(-c3nc(C(N)=O)cs3)cc2)CC1", "protein": "NS5B polymerase", "endpoint": "IC50", "agent": "Hepatitis C virus", "value": "<0.5 µM"}
{"structure": "Cc1ccccc1CNC(=O)Nc1ccsc1-c1nc(C(=O)O)c(O)c(=O)[nH]1", "protein": "HCV polymerase", "endpoint": "IC50", "agent": "Hepatitis C virus", "value": "<25 µM"}